Results taken from patent US20170022553.

Tested on: HIV-1 reverse transcriptase (HIV-1)
Experiment: BLI
Conditions: 3' inverted dT on template; requires NNRTI compound 7 (40 uM) or 18 (80 uM) plus correct dNTP; 11 mM MgCl2, 160 mM KCl, 30 C; no appreciable peaks without …; purified recombinant protein; protein details: Worthington Biochemical; label: 5' biotin on template

## GTGAGCCTGCAATCCCTGCCCCGGTTCATCCTGCTGGAGCTCATGGCGGG / CCCGCCATGAGCTC [ALK wild-type 4460-4509S/4496-4509AS primer-template]
  binding result: binds

For at least one entry, the source does not settle the construct or the ends of the probe.
